The values below come from ChEMBL document CHEMBL1142270, “Synthesis, thermal stability, antimalarial activity of symmetrically and asymmetrically substituted tetraoxanes” (Bioorg Med Chem Lett, 2008).

pIC50: −log10 of the molar value.

Test [1] relates to Plasmodium falciparum. The test can be described thus: Antimalarial activity against Plasmodium falciparum D6 in parasite LDH assay. It is filed as functional, organism-based.
For test [2], the system named is Plasmodium falciparum. The test can be described thus: Antimalarial activity against Plasmodium falciparum W2 in parasite LDH assay. It is filed as functional, organism-based.

A word on the pIC50: it is −log10 of the IC50, conventionally taken in molar units. Lower therefore signals a high IC50. For the molecule `c1ccc(C2OOC3(CCCC3)OO2)cc1`, the pIC50 in the test with Plasmodium falciparum [1] was 5.09; in the test on Plasmodium falciparum [2], 5.12.
